From patent US12172959B2, “Mono- or di-substituted indole derivatives as dengue viral replication inhibitors” (priority 2015, dated 2024)

Assays:
Assay type in all cases: cell-based, Dengue virus
DENV-2 16681 strain = assay: DENV-2 antiviral assay (eGFP fluorescence, Vero cells); details: SI=CC50/EC50, DENV-2 antiviral assay
Protocol: The antiviral activity of all the compounds of the invention was tested against the DENV-2 16681 strain which was labeled with enhanced green fluorescent protein (eGPF; Table 1). The culture medium consists of minimal essential medium supplemented with 2% of heat-inactivated fetal calf serum, 0.04% gentamycin (50 mg/mL) and 2 mM of L-glutamine. Vero cells, obtained from ECACC, were suspended in culture medium and 25 μL was added to 384-well plates (2500 cells/well), which already contain the antiviral compounds. Typically, these plates contain a 5-fold serial dilution of 9 dilution steps of the test compound at 200 times the final concentration in 100% DMSO (200 nL). […] Finally, each plate contains wells which are assigned as virus controls (containing cells and virus in the absence of compound), cell controls (containing cells in the absence of virus and compound) and medium controls (containing medium in the absence of cells, virus and compounds). To the wells assigned as medium control, 25 μL of culture medium was added instead of Vero cells. Once the cells were added to the plates, the plates were incubated for 30 minutes at room temperature to allow the cells to distribute evenly within the wells. Next, the plates were incubated in a fully humidified incubator (37° C., 5% CO2) until the next day. Then, DENV-2 strain 16681, labeled with eGFP, was added at a multiplicity of infection (MOI) of 0.5. Therefore, 15 μL of virus suspension was added to all the wells containing test compound and to the wells assigned as virus control. In parallel, 15 μL of culture medium was added to the medium and cell controls. Next, the plates were incubated for 3 days in a fully humidified incubator (37° C., 5% CO2). At the day of the read out, the eGFP fluorescence was measured using an automated fluorescence microscope at 488 nm (blue laser). Using an in-house LIMS system, inhibition dose response curves for each compound were calculated and the half maximal effective concentration (EC50) was determined. Therefore, the percent inhibition (I) for every test concentration is calculated using the following formula: I=100*(ST−SCC)/(SVC−SCC); ST, SCC and SVC are the amount of eGFP signal in the test compound, cell control and virus control wells, respectively. The EC50 represents the concentration of a compound at which the virus replication is inhibited with 50%, as measured by a 50% reduction of the eGFP fluorescent intensity compared to the virus control. The EC50 is calculated using linear interpolation.

DENV-1 strain TC974#666 = assay: Tetravalent RT-qPCR assay Protocol A, serotype 1; details: RT-qPCR serotype 1 TC974#666
Protocol: (§1) The antiviral activity of the compounds of the invention was tested against DENV-1 strain TC974#666 (NCPV; Table 6), DENV-2 strain 16681 (Table 7), DENV-3 strain H87 (NCPV; Table 8) and DENV-4 strains H241 (NCPV; Table 9A) and SG/06K2270DK1/2005 (Eden; Table 9B) in a RT-qPCR assay. Therefore, Vero cells were infected with either DENV-1, or -2, or -3, or -4 in the presence or absence of test compounds. At day 3 post-infection, the cells were lysed and cell lysates were used to prepare cDNA of both a viral target (the 3′UTR of DENV; Table 2) and a cellular reference gene (β-actin, Table 2). Subsequently, a duplex real time PCR was performed on a Lightcycler480 instrument. The generated Cp value is inversely proportional to the amount of RNA expression of these targets. Inhibition of DENV replication by test compound results in a shift of Cp's for the 3′UTR gene. On the other hand, if a test compound is toxic to the cells, a similar effect on β-actin expression will be observed. The comparative ΔΔCp method is used to calculate EC50, which is based on the relative gene expression of the target gene (3′UTR) normalized with the cellular housekeeping gene (β-actin).
(§2) The culture medium consisted of minimal essential medium supplemented with 2% of heat-inactivated fetal calf serum, 0.04% gentamycin (50 mg/mL) and 2 mM of L-glutamine. Vero cells, obtained from ECACC, were suspended in culture medium and 75 μL/well was added in 96-well plates (10000 cells/well), which already contain the antiviral compounds. […] In addition, each plate contains wells which are assigned as virus controls (containing cells and virus in the absence of compound) and cell controls (containing cells in the absence of virus and compound). Once the cells were added in the plates, the plates were incubated in a fully humidified incubator (37° C., 5% CO2) until the next day. Dengue viruses serotype-1, 2, 3 and 4 were diluted in order to obtain a Cp of ˜22-24 in the assay. Therefore, 25 μL of virus suspension was added to all the wells containing test compound and to the wells assigned as virus control. In parallel, 25 μL of culture medium was added to the cell controls. Next, the plates were incubated for 3 days in a fully humidified incubator (37° C., 5% CO2). After 3 days, the supernatant was removed from the wells and the cells were washed twice with ice-cold PBS (˜100 μL). The cell pellets within the 96-well plates were stored at −80° C. for at least 1 day. Next, RNA was extracted using the Cells-to-CT™ lysis kit, according to the manufacturer's guideline (Life Technologies). The cell lysates can be stored at −80° C. or immediately used in the reverse transcription step.
(§3) In preparation of the reverse transcription step, mix A (table 3A) was prepared and 7.57 μL/well was dispensed in a 96-well plate. After addition of 5 μL of the cell lysates, a five minute denaturation step at 75° C. was performed (table 3B). Afterwards, 7.43 μL of mix B was added (table 3C) and the reverse transcription step was initiated (table 3D) to generate cDNA.
(§4) Finally, a RT-qPCR mix was prepared, mix C (table 4A), and 22.02 μL/well was dispensed in 96-well LightCycler qPCR plates to which 3 μL of cDNA was added and the qPCR was performed according to the conditions in table 4B on a LightCycler 480.
(§5) Using the LightCycler software and an in-house LIMS system, dose response curves for each compound were calculated and the half maximal effective concentration (EC50) and the half maximal cytotoxic concentration (CC50) were determined.

DENV-4 strain H241 = assay: Tetravalent RT-qPCR assay Protocol A, serotype 4 H241; details: RT-qPCR serotype 4 H241
Protocol: as §1, §2, §3, §4, §5

DENV-3 strain H87 = assay: Tetravalent RT-qPCR assay Protocol A, serotype 3; details: RT-qPCR serotype 3 H87
Protocol: as §1, §2, §3, §4, §5

DENV-2 strain 16681 = assay: Tetravalent RT-qPCR assay Protocol A, serotype 2; details: RT-qPCR serotype 2 16681
Protocol: as §1, §2, §3, §4, §5

SMILES	SI (DENV-2 16681 strain)	SI (DENV-1 strain TC974#666)	SI (DENV-4 strain H241)	SI (DENV-3 strain H87)	SI (DENV-2 strain 16681)
COc1cc(NC(C(=O)c2c[nH]c3cc(OC)c(C)cc23)c2ccc(Cl)cc2OC)cc(S(C)(=O)=O)c1 (single isomer, unassigned) [Compound 4B, 2-(4-chloro-2-methoxyphenyl)-2-((3-methoxy-5-(methyl-sulfonyl)phenyl)amino)-1-(6-methoxy-5-methyl-1H-indol-3-yl)ethanone]	341				
COc1cc(NC(C(=O)c2c[nH]c3cc(OC)c(F)cc23)c2ccc(Cl)cc2OC)cc(S(C)(=O)=O)c1 (single isomer, unassigned) [Compound 5B, 2-(4-chloro-2-methoxyphenyl)-1-(5-fluoro-6-methoxy-1H-indol-3-yl)-2-((3-methoxy-5-(methylsulfonyl)phenyl)amino)ethanone]	206				
COc1cc(NC(C(=O)c2c[nH]c3c(C)c(OC)ccc23)c2ccc(Cl)cc2OC)cc(S(C)(=O)=O)c1 (single isomer, unassigned) [Compound 6B, 2-(4-chloro-2-methoxyphenyl)-2-((3-methoxy-5-(methyl-sulfonyl)phenyl)amino)-1-(6-methoxy-7-methyl-1H-indol-3-yl)ethanone]	603				
COc1cc(NC(C(=O)c2c[nH]c3cc(F)c(C)cc23)c2ccc(Cl)cc2OC)cc(S(C)(=O)=O)c1 (single isomer, unassigned) [Compound 7A, 2-(4-chloro-2-methoxyphenyl)-1-(6-fluoro-5-methyl-1H-indol-3-yl)-2-((3-methoxy-5-(methylsulfonyl)phenyl)amino)ethanone]	538				
COc1cc(NC(C(=O)c2c[nH]c3cc(F)c(C)cc23)c2ccc(Cl)cc2OC)cc(S(C)(=O)=O)c1 (single isomer, unassigned) [Compound 7B, 2-(4-chloro-2-methoxyphenyl)-1-(6-fluoro-5-methyl-1H-indol-3-yl)-2-((3-methoxy-5-(methylsulfonyl)phenyl)amino)ethanone]	18500	6600	53	240	23600
COc1cc(NC(C(=O)c2c[nH]c3ccc(C(F)(F)F)cc23)c2ccc(Cl)cc2OC)cc(S(C)(=O)=O)c1 (single isomer, unassigned) [Compound 8A, 2-(4-chloro-2-methoxyphenyl)-2-((3-methoxy-5-(methyl-sulfonyl)phenyl)amino)-1-(5-(trifluoromethyl)-1H-indol-3-yl)ethanone]	2510				
COc1cc(NC(C(=O)c2c[nH]c3ccc(C(F)(F)F)cc23)c2ccc(Cl)cc2OC)cc(S(C)(=O)=O)c1 (single isomer, unassigned) [Compound 8B, 2-(4-chloro-2-methoxyphenyl)-2-((3-methoxy-5-(methyl-sulfonyl)phenyl)amino)-1-(5-(trifluoromethyl)-1H-indol-3-yl)ethanone]	>40900	3130	122	609	23400
COc1cc(NC(C(=O)c2c[nH]c3ccc(OC(F)(F)F)cc23)c2ccc(Cl)cc2OC)cc(S(C)(=O)=O)c1 (single isomer, unassigned) [Compound 9A, 2-(4-chloro-2-methoxyphenyl)-2-((3-methoxy-5-(methyl-sulfonyl)phenyl)amino)-1-(5-(trifluoromethoxy)-1H-indol-3-yl)ethanone]	>37500	13300	121	474	31700
COc1cc(NC(C(=O)c2c[nH]c3ccc(OC(F)(F)F)cc23)c2ccc(Cl)cc2OC)cc(S(C)(=O)=O)c1 (single isomer, unassigned) [Compound 9B, 2-(4-chloro-2-methoxyphenyl)-2-((3-methoxy-5-(methyl-sulfonyl)phenyl)amino)-1-(5-(trifluoromethoxy)-1H-indol-3-yl)ethanone]	1480				
COc1cc(NC(C(=O)c2c[nH]c3cc(OC)c(OC(F)(F)F)cc23)c2ccc(Cl)cc2OC)cc(S(C)(=O)=O)c1 (single isomer, unassigned) [Compound 10A, 2-(4-chloro-2-methoxyphenyl)-2-((3-methoxy-5-(methylsulfonyl)phenyl)amino)-1-(6-methoxy-5-(trifluoromethoxy)-1H-indol-3-yl)ethanone]	22600	5670	127	280	28200
COc1cc(NC(C(=O)c2c[nH]c3cc(OC)c(OC(F)(F)F)cc23)c2ccc(Cl)cc2OC)cc(S(C)(=O)=O)c1 (single isomer, unassigned) [Compound 10B, 2-(4-chloro-2-methoxyphenyl)-2-((3-methoxy-5-(methylsulfonyl)phenyl)amino)-1-(6-methoxy-5-(trifluoromethoxy)-1H-indol-3-yl)ethanone]	2530				
COc1cc(NC(C(=O)c2c[nH]c3c(C)cc(OC(F)(F)F)cc23)c2ccc(Cl)cc2OC)cc(S(C)(=O)=O)c1 (single isomer, unassigned) [Compound 11A, 2-(4-chloro-2-methoxyphenyl)-2-((3-methoxy-5-(methylsulfonyl)phenyl)amino)-1-(7-methyl-5-(trifluoromethoxy)-1H-indol-3-yl)ethanone]	30100	>22100	>250	>2630	>69000
COc1cc(NC(C(=O)c2c[nH]c3c(C)cc(OC(F)(F)F)cc23)c2ccc(Cl)cc2OC)cc(S(C)(=O)=O)c1 (single isomer, unassigned) [Compound 11B, 2-(4-chloro-2-methoxyphenyl)-2-((3-methoxy-5-(methylsulfonyl)phenyl)amino)-1-(7-methyl-5-(trifluoromethoxy)-1H-indol-3-yl)ethanone]	2220				
